Source: US20250042935 (published 2025)
Several values for one entry are separate records, joined by “and”; a condition that tells them apart may be missing. Equal values may be shown once.

Assay: general procedure: Fmoc solid-phase peptide synthesis; pre-loaded Fmoc-amino acid Wang resins (~0.34 mmol/g loading); DIC, oxyma, 2,4,6-collidine
Conditions: late stage modification step

Row | Substance | step yield [%]
1 | Pyr-HWSYGLRPG | 78
2 | SYSMEHFRWGKPVGKKRRPVKVYP | 63
3 | QDEGSEATGFLPAAGEKTSGPLGNLAEELNGYSRKKGGFSFRF | 73

Same assay, conditions: late stage modification step; run 1

Row | Substance | step yield
4 | HGEGTFTSDLSKQMEEEAVRLFIEWLKNGGPSSRHYLNLVTRQRY | 56% and 49%
5 | VPLPAGGGTVLTKMYPRGNHWAVGHLM | 48% and 68%
6 | HAEGTFTSDVSSYLEGQAAKEFIAWLVKGR | 53% and 70%
